Data reported in PubChem BioAssay AID1159583 (ICCB-Longwood Screening Facility, Harvard Medical School, 2016).
“And” between values parts separate entries of the source, which are not always exact repeats. Identical values can stand only once. The list shows a part of the results, in another mix than the full data. The source made the active and inactive calls. No stated cut-off is given here; in the data, active means fluorescence inhibition mostly above about 23% (no sharp cut-off); inactive means mostly below about 17%.

Experiment: hypoxia reporter signal reduction in M. tuberculosis – fluorescence, absorbance growth readout, primary screen (AID 1159583)
Details: M. tuberculosis hypoxia-regulated fluorescent reporter, active compounds read high, concentration not given here

Structure (SMILES) | fluorescence inhibition
CN(C(=O)Cc1ccc(Cl)c(Cl)c1)C1CCCCC1N1CCCC1 (stereo not drawn) | inactive: -0.367% and inactive: 5.75% and inactive: 7.04%
CN(C)C(=O)c1c([N+](=O)[O-])cc([N+](=O)[O-])cc1[N+](=O)[O-] | inactive: 6.88%
CC1CCN(C(=O)Oc2c(Cl)cc(Cl)c3cccnc23)CC1 | inactive: 5.54%
C[N+]1=C2C=CC=CC=C2SC12C([N+](=O)[O-])=CC([N+](=O)[O-])=C[C-]2[N+](=O)[O-] (stereo not drawn) | inactive: 18.3%
COc1ccccc1OP(C)(=O)Nc1ccccc1Br (stereo not drawn) | inactive: 18%
Nc1ccc([As](=O)(O)c2ccc(N)cc2)cc1 | inactive: 13.1%
CC(C)(C)c1ccc(OP(C)(=O)O)cc1 | inactive: 5.11%
CP(=O)(Nc1ccc(Cl)cc1)Oc1ccc(F)cc1 (stereo not drawn) | inactive: 11.2%
O=C(OCCCN1CCCC1)C(O)(c1ccccc1)C1CCCCC1 (stereo not drawn) | inactive: 2.71%
CC(=O)N1C2C3N(C(C)=O)C1C1N(C(C)=O)C(C(N1C(C)=O)N3C(C)=O)N2C(C)=O | inactive: 10.5%
CCc1ccc(OP(C)(=O)Nc2cccnc2)cc1 (stereo not drawn) | inactive: -2.82%
O=[N+]([O-])c1cc([N+](=O)[O-])c(CCNc2ccccc2)c([N+](=O)[O-])c1 | inactive: 7.67%
CCc1nc2c(n1)c1c(non1O)c1c2no[n+]1[O-] | inactive: 14.1%
Cc1ccc(NP(=O)(Oc2ccccc2)Oc2ccccc2)nc1 | inactive: 2.11%
COc1ccc(C2=NCC(CBr)S2)cc1 (stereo not drawn) | inactive: 3.4%
COc1ccc(OP(C)(=O)Nc2ccc(Br)cc2)cc1 (stereo not drawn) | inactive: -0.455%
CCN(CC)CC(O)COC(=O)C(O)(c1ccccc1)C1CCCCC1 (stereo not drawn) | inactive: 6.3%
O=[N+]([O-])c1cccc(NC2=NCC(CBr)S2)c1 (stereo not drawn) | inactive: 10.1%
O=C(O)CNc1ccc([As](=O)(O)O)cc1 | inactive: 6.15%
CC(C)(C)C(=O)NC(Sc1ccncn1)C(Cl)(Cl)Cl (stereo not drawn) | inactive: 2.69%
O=[N+]([O-])c1ncn(CCn2ncnc2[N+](=O)[O-])n1 | inactive: -5.82%
O=C(Nc1cc([As](=O)(O)O)ccc1O)c1ccccc1 | inactive: 1.8%
CP(=O)(OC12CC3CC(CC(C3)C1)C2)OC12CC3CC(CC(C3)C1)C2 | inactive: 16.3%
Nc1ccc2c(ccc3cccnc32)n1.O=[N+]([O-])c1cc([N+](=O)[O-])c(O)c([N+](=O)[O-])c1 | inactive: 0.546%

Structure (SMILES) | fluorescence inhibition
O=P1(N(CCCl)CCCl)OCCCS1 (stereo not drawn) | inactive: 11.5%
CCN(N=Nc1nonc1N)c1nonc1N | inactive: 7.55%
CP(=O)(Nc1ccc(Cl)cc1Cl)Oc1ccccc1 (stereo not drawn) | inactive: 0.0468%
COc1ccccc1OP(C)(=O)Nc1ccc(C)c(C)c1 (stereo not drawn) | inactive: 9.16%
Cc1ccc(NP(=O)(Oc2ccccc2F)Oc2ccccc2F)nc1 | inactive: 6.5%
Cc1cc(SC(NC(=O)c2ccc(F)cc2)C(Cl)(Cl)Cl)ncn1 (stereo not drawn) | inactive: -1.08%
CCOP(=O)(Nc1ccccc1)OCC | inactive: -13%
CC(C)=NN=C(N)N[N+](=O)[O-] | inactive: -1.04%
CCN(CC)CC(C)C(C)OC(=O)C(O)(c1ccccc1)c1ccccc1 (stereo not drawn) | inactive: 17.7%
CCCC1OP(N)(=O)OCC1CC (stereo not drawn) | inactive: 10.6%
CC(=O)Nc1ccc([As](=O)(O)O)cc1 | inactive: 6.78%
O=C(O)c1ccccc1[As](=O)(O)O | inactive: -11.3%
O=P(Nc1nc2ccc(Cl)cc2s1)(c1ccccc1)c1ccccc1 | inactive: 8.53%
Cc1cc(C)cc(OP(C)(=O)Nc2cccc(C(F)(F)F)c2)c1 (stereo not drawn) | inactive: -0.0218%
O=C1C(O)=C([N+](=O)[O-])C(=O)C(O)=C1[N+](=O)[O-] | inactive: 15.9%
COc1ccccc1OP(C)(=O)Nc1ccc(C)cc1C (stereo not drawn) | inactive: 9.05%
CCc1ccc(OP(C)(=O)O)cc1 | inactive: -2.54%
Nc1cc(N)c2nonc2c1[N+](=O)[O-] | inactive: -6.62%
Cc1c(NP(C)(=O)Oc2ccc(C(C)C)cc2)c(=O)n(-c2ccccc2)n1C (stereo not drawn) | inactive: 2.43%
O=[N+]([O-])c1cc([N+](=O)[O-])c(Nc2ccccn2)c([N+](=O)[O-])c1 | active: 53.3%
CC(C)CC(=O)NC(Sc1ccc(Cl)cc1)C(Cl)(Cl)Cl (stereo not drawn) | inactive: 3.66%
O=C(NC(Sc1ccncn1)C(Cl)(Cl)Cl)c1ccccc1 (stereo not drawn) | inactive: 1.15%
Oc1ccccc1CNc1ccccn1 | inactive: 14.1%
Cc1ccc(OP(=O)(Nc2nccs2)Oc2ccc(C)cc2)cc1 | inactive: 16.5%
